In PubChem BioAssay AID1259343 (VanderVen Lab, College of Veterinary Medicine, Cornell …, 2017):
The entries are a selection whose mix differs from that of the whole data set. Activity calls are given as the source filed them. Cut-off read from the data, not from the text of the source: active = inhibition above about 50%; inactive = the rest.

Assay: Mycobacterium tuberculosis growth inhibition, primary screen (AID 1259343)
Settings: at 10 µM, hits give high values

SMILES	inhibition
Cc1cc(C)cc(OP(C)(N)=O)c1 (stereo not given)	inactive: -9.69%
CP(=O)(Nc1ccc(Br)cc1)Oc1ccccc1 (stereo not given)	inactive: 22.8%
CP(=O)(Nc1ccc(Br)cc1)Oc1ccc(Cl)cc1 (stereo not given)	inactive: 15.1%
Cc1ccc(NP(C)(=O)Oc2ccc(C(C)C)cc2)cc1C (stereo not given)	inactive: 40.4%
COc1ccc(OP(C)(=O)Nc2ccc(Br)cc2)cc1 (stereo not given)	active: 79.3%
